{
  "source": "patent US20230365639A1",
  "about": "“DEFENSIN FRAGMENT DERIVED LIPOPEPTIDES FOR TREATMENT OF DRUG-RESISTANT MICROORGANISMS” (priority 2020, published 2023)",
  "tested_on": "fecal microbiota",
  "assay": "Microbiome analysis following administration of Pams (16S rRNA sequencing)",
  "format": "in vivo, mice",
  "note": "Entries after “also recorded” stand apart in the source; their conditions may differ.",
  "data": [
    {"substance": "Pam2-Glc-Suc-RGKAKCCK [Pam-1]", "values": [
      {"measurement": "abundance of bacterial genera", "setting": "oral 125 or 250 μg", "value": "did not affect; also recorded: neither Pam-1 nor Pam-3 treatment affected the abundance of bacterial genera"},
      {"measurement": "changes in the microbiota between before and after samples (beta diversity, weighted Unifrac Distances)", "setting": "oral 125 or 250 μg, feces before and 24 hours after, vs PBS", "value": "similar"},
      {"measurement": "number of detected species and complexity", "setting": "oral 125 or 250 μg, vs PBS", "value": "remained comparable"},
      {"measurement": "overall effect on microbiota (composition, community structure, diversity)", "setting": "oral, healthy chow-fed mice", "value": "does not affect the overall community structure or diversity; also recorded: neither Pam-1 nor Pam-3 treatment had any appreciable effects"}
    ]}
  ]
}
